US20120301951A1, “PREVENTION OF CONTAMINATION OF NUTRIENT FEED RESERVOIRS & FEED LINES IN BIOREACTOR SYSTEMS” (E. I. DU PONT DE NEMOURS AND COMPANY, priority 2010, published 2012)

System: Arcobacter sp. strain 97AE3-12
Experiment: Contamination prevention of the nutrient feed reservoir during continuous growth in a bioreactor (Example 2); ion chromatography of feed reservoir and effluent
Assay type: cell-based

Row | SMILES | Concentration in bioreactor effluent (7) after 20 days of feeding [ppm] | Concentration in bioreactor effluent (7) after 26 days of feeding [ppm]
1 | CC(O)C(=O)O (stereo not shown) [Lactate, lactate] | 0 | 0
2 | O=[N+]([O-])O [Nitrate, nitrate] | 0 | 13
